Measured values from several laboratories, pooled; numbers as filed in NIAID ChemDB.

Common to all: growth or infection tests; species: Mycobacterium avium complex; read-out: MIC

Neighbouring rows are from separate reports.

{"SMILES": "CCCCN(CCCC)C[C@H](O)c1cc2c(Cl)cc(Cl)cc2c2cc(C(F)(F)F)ccc12", "strain": "101 (clarithromycin-resistant)", "value": "8 µg/mL"}
{"SMILES": "CCc1nc(N)nc(N)c1-c1ccc(Cl)cc1", "strain": "DW26", "value": "32 µg/mL"}
{"SMILES": "N#Cc1ccnc(SCc2cccc(Br)c2)c1", "strain": "MY330/88", "value": "125 µM"}
{"SMILES": "CCCCCCCCO[C@@H]1O[C@H]([C@@H](CO)O[C@H]2O[C@H](CO)[C@@H](O)[C@@H]2O)[C@H](O)[C@H]1O", "strain": "NJ304", "value": ">128 µg/mL"}
{"SMILES": "CC[C@H]1OC(=O)[C@H](C)[C@@H](O[C@H]2C[C@@](C)(OC)[C@@H](OC(C)=O)[C@H](C)O2)[C@H](C)[C@@H](OC2O[C@H](C)C[C@H](N(C)C)[C@H]2OC(=O)NCC(=O)NC)C(C)(O)C[C@@H](C)/C(=N\\OCCCC2CCCCC2)[C@H](C)[C@@H](O)[C@]1(C)O", "strain": "20092", "value": "0.78 µg/mL"}
{"SMILES": "COc1cc(NC(C)CSCCN)c2nccc(C)c2c1Oc1cccc(C(F)(F)F)c1", "strain": "5 clinical isolates", "value": ">16 µg/mL"}
{"SMILES": "CC[C@H]1OC(=O)[C@H](C)[C@@H](O[C@H]2C[C@@](C)(OC)[C@@H](O)[C@H](C)O2)[C@H](C)[C@@H](O[C@@H]2O[C@H](C)C[C@H](N(C)C)[C@H]2O)[C@](C)(OC)C[C@@H](C)C(=O)[C@H](C)[C@@H](O)[C@]1(C)O", "strain": "N-444", "value": "8 µg/mL"}
{"SMILES": "C#CCNC(=O)O[C@H]1C(O[C@@H]2[C@@H](C)[C@H](O[C@H]3C[C@@](C)(OC)[C@@H](OC(C)=O)[C@H](C)O3)[C@@H](C)C(=O)O[C@H](CC)[C@@](C)(O)[C@H](O)[C@@H](C)/C(=N/OCCCC3CCCCC3)[C@H](C)CC2(C)O)O[C@H](C)C[C@@H]1N(C)C", "strain": "20092", "value": "0.2 µg/mL"}
{"SMILES": "CC(=O)Nc1ccc(/C(C)=N\\NC(N)=S)cc1", "strain": "108", "value": "32 µg/mL"}
{"SMILES": "CO[C@H]1/C=C/O[C@@]2(C)Oc3c(C)c(O)c4c(O)c(c5c(c4c3C2=O)NC2(CCN(CC(C)C)CC2)N=5)=NC(=O)/C(C)=C\\C=C\\[C@H](C)[C@H](O)[C@@H](C)[C@@H](O)[C@@H](C)[C@H](OC(C)=O)[C@@H]1C", "strain": "N-238 (HIV-)", "value": "0.125 µg/mL"}
{"SMILES": "NC(=S)c1ccnc(SCc2cccc(Br)c2)c1", "strain": "MY330/88", "value": "31 µM"}
{"SMILES": "Cc1ccc(C)c(Sc2ncnc3nc[nH]c23)c1", "strain": "NJ211", "value": ">12.8 µg/mL"}
{"SMILES": "Cc1cccc(CSc2cc(C#N)ccn2)c1", "strain": "MY330/88", "value": "250 µM"}
{"SMILES": "NNC(=O)c1ccncc1", "strain": "13011", "value": "0.63–0.8 µg/mL"}
{"SMILES": "CC[C@H]1OC(=O)[C@H](C)[C@@H](O[C@H]2C[C@@](C)(OC)[C@@H](OC(C)=O)[C@H](C)O2)[C@H](C)[C@@H](O[C@@H]2O[C@H](C)C[C@H](N(C)C)[C@H]2OC(=O)NNCc2ccncc2)C(C)(O)C[C@@H](C)/C(=N\\OCCCC2CCCCC2)[C@H](C)[C@@H](O)[C@]1(C)O", "strain": "20096 (clarithromycin-resistant)", "value": "0.78 µg/mL"}
{"SMILES": "O=c1c2ccccc2sn1CCO", "strain": "ATCC 15769", "value": "32 µg/mL"}
{"SMILES": "CC[C@H]1OC(=O)[C@H](C)[C@@H](O[C@H]2C[C@@](C)(OC)[C@@H](O)[C@H](C)O2)[C@H](C)[C@@H](O[C@@H]2O[C@H](C)C[C@H](N(C)C)[C@H]2O)[C@](C)(O)C[C@@H](C)CN(C)[C@H](C)[C@@H](O)[C@]1(C)O", "strain": "F", "value": "8 µg/mL"}
{"SMILES": "O[C@@H](c1cc(C(F)(F)F)nc2c(C(F)(F)F)cccc12)[C@H]1CCCCN1", "strain": "5 clinical isolates", "value": "8–16 µg/mL"}
{"SMILES": "CC(C)N=C(N)N(OCCCOc1cc(Cl)c(Cl)cc1Cl)C(=N)N", "strain": "LPR", "value": "32 µg/mL"}
{"SMILES": "CCCCCNC(=O)O[C@H]1C(O[C@@H]2[C@@H](C)[C@H](O[C@H]3C[C@@](C)(OC)[C@@H](OC(C)=O)[C@H](C)O3)[C@@H](C)C(=O)O[C@H](CC)[C@@](C)(O)[C@H](O)[C@@H](C)/C(=N/OCCCC3CCCCC3)[C@H](C)CC2(C)O)O[C@H](C)C[C@@H]1N(C)C", "strain": "20096", "value": "0.2 µg/mL"}
{"SMILES": "Cc1ccc(Sc2nc(Cl)nc3nc[nH]c23)cc1C", "strain": "NJ211", "value": ">12.8 µg/mL"}
{"SMILES": "CCCCCCCCO[C@@H]1O[C@@H]([C@H](COCc2ccccc2)O[C@H]2O[C@H](COCc3ccccc3)[C@@H](OCc3ccccc3)[C@@H]2OCc2ccccc2)[C@H](OCc2ccccc2)[C@H]1OCc1ccccc1", "strain": "NJ211", "value": ">128 µg/mL"}
{"SMILES": "CC[C@H]1OC(=O)[C@H](C)[C@@H](OC2C[C@@](C)(OC)[C@@H](O)[C@H](C)O2)[C@H](C)[C@@H](O[C@@H]2O[C@H](C)C[C@H](N(C)C)[C@H]2O)C(C)(O)C[C@@H](C)/C(=N\\OCC2CCCCC2)[C@H](C)[C@@H](O)[C@]1(C)O", "strain": "20096 (clarithromycin-resistant)", "value": ">50 µg/mL"}
{"SMILES": "Cc1ccc(C)c(NCc2cnc3nc(N)nc(N)c3c2C)c1", "strain": "NJ3404", "value": "≤0.13 µg/mL"}
{"SMILES": "N#Cc1ccnc(SCc2cccc(Cl)c2)c1", "strain": "MY330/88", "value": "62.5 µM"}
{"SMILES": "CC1(C)N=C(N)N=C(N)N1OCCCOc1cc(Cl)c(Cl)cc1Cl", "strain": "DW11", "value": "2 µg/mL"}
{"SMILES": "CCCNC(=O)OCCn1sc2ccccc2c1=S", "strain": "ATCC 15769", "value": "4 µg/mL"}
{"SMILES": "C[C@@H]1CN(c2c(F)c(N)c3c(=O)c(C(=O)O)cn(C4CC4)c3c2F)C[C@H](C)N1", "strain": "N-319 (HIV-)", "value": "2 µg/mL"}
{"SMILES": "CC(C)NC(=O)OCCn1sc2ccccc2c1=S", "strain": "AN2", "value": "4 µg/mL"}
{"SMILES": "CC[C@H]1OC(=O)[C@H](C)[C@@H](O[C@H]2C[C@@](C)(OC)[C@@H](OC(C)=O)[C@H](C)O2)[C@H](C)[C@@H](O[C@@H]2O[C@H](C)C[C@H](N(C)C)[C@H]2OC(=O)NNCc2ccc([N+](=O)[O-])cc2)C(C)(O)C[C@@H](C)/C(=N\\OCCCC2CCCCC2)[C@H](C)[C@@H](O)[C@]1(C)O", "strain": "20096 (clarithromycin-resistant)", "value": "3.13 µg/mL"}
{"SMILES": "CC(C)N=C(N)/N=C(\\N)Nc1ccc(Cl)cc1", "strain": "LPR", "value": "128 µg/mL"}
{"SMILES": "COc1ccc(Sc2nc(Cl)nc3nc[nH]c23)cc1OC", "strain": "NJ211", "value": ">12.8 µg/mL"}
{"SMILES": "CC[C@H]1OC(=O)[C@H](C)[C@@H](OC(=O)C(C)C)[C@H](C)[C@@H](O[C@@H]2O[C@H](C)C[C@H](N(C)C)[C@H]2O)C(C)(O)C[C@@H](C)/C(=N\\OCCCOc2ccccc2)[C@H](C)[C@@H](O)[C@]1(C)O", "strain": "20092 (clarithromycin-resistant)", "value": "12.5 µg/mL"}
{"SMILES": "CCCCCCCCO[C@H]1O[C@H](CO[C@H]2O[C@H](CO)[C@@H](O)[C@@H]2O)[C@@H](OC)[C@@H]1OC", "strain": "NJ211", "value": ">128 µg/mL"}
{"SMILES": "NC1=C(Cl)C(=O)c2ccccc2C1=O", "strain": "5 clinical isolates", "value": ">16 µg/mL"}
{"SMILES": "Cc1ccc(Cl)c(NCc2cnc3nc(N)nc(N)c3c2C)c1", "strain": "NJ168", "value": "≤0.13 µg/mL"}
{"SMILES": "CO[C@H]1/C=C/O[C@@]2(C)Oc3c(C)c(O)c4c(O)c(c5c(c4c3C2=O)NC2(CCN(CC(C)C)CC2)N=5)=NC(=O)/C(C)=C\\C=C\\[C@H](C)[C@H](O)[C@@H](C)[C@@H](O)[C@@H](C)[C@H](OC(C)=O)[C@@H]1C", "strain": "F", "value": "0.5 µg/mL"}
{"SMILES": "CCCNC(=O)OCCn1sc2ccccc2c1=O", "strain": "AN1", "value": "16 µg/mL"}
{"SMILES": "NNC(=O)c1ccncc1", "strain": "N-951 (HIV+)", "value": "2 µg/mL"}
{"SMILES": "CCCCCCCCOC1OC([C@H](CO)OC2O[C@@H](C(O)CO)[C@H](O)[C@H]2O)[C@H](O)[C@H]1O", "strain": "NJ304", "value": ">128 µg/mL"}
{"SMILES": "Cc1cccc(CSc2cc(C(N)=S)ccn2)c1", "strain": "MY330/88", "value": "31 µM"}
{"SMILES": "CCc1c(CNc2cc(C)ccc2OC)cnc2nc(N)nc(N)c12", "strain": "NJ3404", "value": "≤0.13 µg/mL"}
{"SMILES": "CCCCCCCCO[C@H]1OC(CO[C@H]2O[C@H](CO)[C@@H](O)[C@@H]2OCc2ccccc2)[C@@H](OCc2ccccc2)[C@@H]1OCc1ccccc1", "strain": "NJ211", "value": ">128 µg/mL"}
{"SMILES": "CN[C@@H]1[C@H](O[C@H]2[C@H](O[C@H]3[C@H](O)[C@@H](O)[C@H](N=C(N)N)[C@@H](O)[C@@H]3N=C(N)N)O[C@@H](C)[C@]2(O)C=O)O[C@@H](CO)[C@H](O)[C@H]1O", "strain": "N-951 (HIV+)", "value": "4 µg/mL"}
{"SMILES": "Cc1c(CSc2nc(=O)[nH]c3nc[nH]c23)cccc1[N+](=O)[O-]", "strain": "NJ211", "value": ">32 µg/mL"}
{"SMILES": "CCCCCCCCCCCCCCN(C)C(=O)O[C@H]1C(O[C@@H]2[C@@H](C)[C@H](O[C@H]3C[C@@](C)(OC)[C@@H](OC(C)=O)[C@H](C)O3)[C@@H](C)C(=O)O[C@H](CC)[C@@](C)(O)[C@H](O)[C@@H](C)/C(=N/OCCCC3CCCCC3)[C@H](C)CC2(C)O)O[C@H](C)C[C@@H]1N(C)C", "strain": "20045", "value": "0.2 µg/mL"}
{"SMILES": "CC1(C)N=C(N)N=C(N)N1OCCCOc1cc(Cl)c(Cl)cc1Cl", "strain": "W7547", "value": "2 µg/mL"}
{"SMILES": "CC/C=C/CCNC(=O)O[C@H]1C(O[C@@H]2[C@@H](C)[C@H](O[C@H]3C[C@@](C)(OC)[C@@H](OC(C)=O)[C@H](C)O3)[C@@H](C)C(=O)O[C@H](CC)[C@@](C)(O)[C@H](O)[C@@H](C)/C(=N/OCCCC3CCCCC3)[C@H](C)CC2(C)O)O[C@H](C)C[C@@H]1N(C)C", "strain": "20034", "value": "0.1 µg/mL"}
{"SMILES": "CC(C)(C)NC(=O)OCCn1sc2ccccc2c1=O", "strain": "AN1", "value": ">32 µg/mL"}
{"SMILES": "Cc1c(CNc2ccccc2OC(F)F)cnc2nc(N)nc(N)c12.O", "strain": "NJ3404", "value": "≤0.13 µg/mL"}
{"SMILES": "CCCCCCCCO[C@@H]1O[C@H]([C@@H](COC)O[C@H]2O[C@H](CO)[C@@H](O)[C@@H]2O)[C@H](OC)[C@H]1OC", "strain": "NJ168", "value": ">128 µg/mL"}
{"SMILES": "NC(=S)c1ccnc(SCc2c(F)cccc2[N+](=O)[O-])c1", "strain": "MY330/88", "value": "62 µM"}
{"SMILES": "COc1cccc(Sc2ncccn2)c1", "strain": "NJ211", "value": ">12.8 µg/mL"}
{"SMILES": "Cc1cc(NCc2cnc3nc(N)nc(N)c3c2C)c(Cl)cc1F", "strain": "NJ211", "value": "≤0.13 µg/mL"}
{"SMILES": "CCCCCCCCO[C@@H]1O[C@H]([C@@H](COCc2ccccc2)O[C@H]2O[C@H](CO)[C@@H](O)[C@@H]2O)[C@H](OCc2ccccc2)[C@H]1OCc1ccccc1", "strain": "NJ3404", "value": ">128 µg/mL"}
{"SMILES": "CCCCCCCCO[C@@H]1O[C@H]([C@@H](COCc2ccccc2)O[C@H]2O[C@H](CO)[C@@H](O)[C@@H]2O)[C@H](OCc2ccccc2)[C@H]1OCc1ccccc1", "strain": "NJ168", "value": ">128 µg/mL"}
{"SMILES": "N#Cc1ccnc(SCc2ccccc2F)c1", "strain": "MY330/88", "value": "125 µM"}
{"SMILES": "CCCCCCCCO[C@@H]1OC(C(CO[C@@H]2O[C@@H]([C@H](O)CO)[C@H](O)[C@H]2O)OC(C)=O)[C@H](OC(C)=O)[C@H]1OC(C)=O", "strain": "NJ211", "value": ">128 µg/mL"}
{"SMILES": "C[C@@H]1CN(c2c(F)c(N)c3c(=O)c(C(=O)O)cn(C4CC4)c3c2F)C[C@H](C)N1", "strain": "Isolate 90-0731", "value": "1 µg/mL"}

4 of the rows above, restated:

SMILES	strain	value
Cc1c(CNc2ccccc2OC(F)F)cnc2nc(N)nc(N)c12.O	NJ3404	≤0.13 µg/mL
CN[C@@H]1[C@H](O[C@H]2[C@H](O[C@H]3[C@H](O)[C@@H](O)[C@H](N=C(N)N)[C@@H](O)[C@@H]3N=C(N)N)O[C@@H](C)[C@]2(O)C=O)O[C@@H](CO)[C@H](O)[C@H]1O	N-951 (HIV+)	4 µg/mL
NNC(=O)c1ccncc1	N-951 (HIV+)	2 µg/mL
Cc1ccc(Sc2nc(Cl)nc3nc[nH]c23)cc1C	NJ211	>12.8 µg/mL

a–b is a range or a potency band.